Pooled drug test results. Numbers come from NIAID ChemDB, via PubChem.

All rows: whole-cell or culture tests; species: HIV-1; cells: MT-4; read-out: EC50

Blank or dashed fields: not listed here. Two numbers with a dash give a range or band. ECn is the concentration giving n% inhibition of infection, replication or growth. Conditions beyond the fields shown may differ between rows.

smiles,strain,changes,method,conditions,result
Cc1c(O)cccc1C(=O)N[C@@H](Cc1ccccc1)[C@H](O)C(=O)N1CCC[C@H]1C(=O)NC(C)(C)C,IIIB,-,-,-,1.97 µM
C[C@@H]1c2[nH]c(N)nc2[C@@]2(O)C[C@@H]1C1C(c3cnc(-c4c[nH]c5cc(Br)ccc45)c(=O)[nH]3)=CNC1C2=O,-,-,syncytia,-,0.91 µM
Cc1cn([C@H]2C[C@H](N=[N+]=[N-])[C@@H](CO)O2)c(=O)[nH]c1=O,HXB2-D (RT K65R M184V),RT-K65R M184V,p24,-,0.013 µM
CCOC(=O)c1c[nH]cc1S(=O)(=O)c1cc(Cl)ccc1NCC=C(C)C,IIIB,-,cytopathic effect / MTT,-,>12 µM
Nc1ccc(C(=O)N2CCC(NC(=O)c3cc(O)c(O)c(O)c3)CC2)cc1,IIIB,-,MTT,-,>35.6 µM
CCC(CCC(C)C1CCC2C3C[C@@H](O)[C@@]4(O)C[C@@H](O)CCC4(C)C3CCC12C)C(C)C,-,-,cytopathic effect,-,9.38 µg/mL
CC1CNC(=O)c2ccccc2SSc2ccccc2C(=O)N1,IIIB,-,-,-,~1.8 µg/mL
Cc1c(O)cccc1C(=O)N[C@@H](Cc1ccccc1)[C@H](O)C(=O)N1CS(=O)(=O)C[C@H]1C(=O)NC(C)(C)C,IIIB,-,-,-,1.8 µM
Nc1ncnc2c1ncn2C=C1CC1CO,IIIB Laboratory clade B,-,cytopathic effect / MTT,-,>100 µM
N#Cc1ccc(Nc2nc(N)nc(Oc3c(Cl)cccc3Cl)n2)cc1,NNRTI-resistant (RT Y188L),RT-Y188L,cytopathic effect / MTT,-,3.2 µM
CC(C)=CCn1cc2c(c1)S(=O)(=O)c1cc(Cl)ccc1NC2=S,Clinical isolate,RT-Y181C,cytopathic effect / MTT,-,≥30 µM
COCc1cn([C@H]2C[C@H](N=[N+]=[N-])[C@@H](CO)O2)c(=O)[nH]c1=O,IIIB,-,ELISA / antigen,-,>100 µM
CC(C)(C)NC(=O)[C@@H]1C[C@@H]2CCCC[C@@H]2CN1C[C@@H](O)[C@H](Cc1ccccc1)NC(=O)O[C@@H]1CO[C@@H]2OCC[C@@H]21,IIIB,-,antigen,-,<0.2 µM
C=C1CN(S(=O)(=O)c2ccc(C)cc2)CCCN(Cc2ccccc2)CCCN(S(=O)(=O)c2ccc(C)cc2)C1,NL4-3,-,p24,-,<3.2 µM
CCCCn1cc(C(=O)O)c(=O)c2cc(Br)c(Oc3ccnc(Nc4ccc(C#N)cc4)n3)cc21,IIIB,-,MTT,-,0.018 µM
O=c1[nH]cnc2c1ncn2[C@H]1CC[C@@H](CO)O1,IIIB,-,MTT,-,76 µM
COC(c1ccccc1)c1nc(C(=O)NCc2ccc(F)cc2)c(O)c(=O)[nH]1,IIIB,-,p24,10% FBS,<2.5 µM
CCn1cc(C(=O)O)c(=O)c2cc(Br)c(Oc3ccnc(Nc4ccc(C#N)cc4)n3)cc21,IIIB,K103N Y181C NNRTI-resistant,MTT,-,4.54 µM
CC1(C)S[C@H]([C@H](NC(=O)Cc2ccccn2)C(=O)NCc2ccccc2)N[C@H]1C(=O)NCCNC(=O)[C@@H]1N[C@@H]([C@H](NC(=O)Cc2ccccn2)C(=O)NCc2ccccc2)SC1(C)C,RF,-,cytopathic effect / MTT,-,10 µM
CC(=O)Nc1nc(C)c(S(=O)(=O)N2CCC(NC(=O)c3cc(O)c(O)c(O)c3)CC2)s1,IIIB,-,MTT,-,>80 µM
Cc1ccnc2c1NC(=O)c1cccnc1N2C1CC1,IIIB,-,trypan blue,-,0.048 µM
Cc1c(Sc2ccccc2)n(COCCO)c(=S)[nH]c1=O,-,-,cytopathic effect,-,1.6 µM
Cc1c(C(C)(C)C)s/c(=N\S(=O)(=O)c2cc(Cl)ccc2NS(C)(=O)=O)n1C,IIIB,-,cytopathic effect / MTT,-,>25 µM
Cn1cc(C(=O)O)c(=O)c2cc(Br)c(Oc3ccnc(Nc4ccc(C#N)cc4)n3)cc21,IIIB,-,MTT,-,0.087 µM
CCCCCCCCOC(=O)P(=O)(OCc1ccc(Cl)cc1)OCc1ccc(Cl)cc1,IIIB,-,cytopathic effect / MTT,-,>10 µM
CCCCOCc1cn([C@H]2C[C@H](N=[N+]=[N-])[C@@H](CO)O2)c(=O)[nH]c1=O,IIIB,-,ELISA / antigen,-,>100 µM
Cc1cn([C@H]2C[C@H](N=[N+]=[N-])[C@@H](COP(=O)(O)C(=O)OCCSC(=O)C(C)(C)C)O2)c(=O)[nH]c1=O,IIIB,-,cytopathic effect / MTT,-,7 µM
C1CNCCNCCCN(CCCN2CCCNCCNCCCNCC2)CCNC1,NL4-3,-,cytopathic effect / MTT,-,0.56 µg/mL
CCN1C(=S)c2cn(C)cc2S(=O)(=O)c2cc(Cl)ccc21,IIIB,-,cytopathic effect / MTT,-,17 µM
CN(C)c1ccc(CNC(=O)[C@@H](NC(=O)Cc2ccccc2)[C@@H]2N[C@@H](C(=O)NCCNC(=O)[C@@H]3N[C@@H]([C@H](NC(=O)Cc4ccccc4)C(=O)NCc4ccc(N(C)C)cc4)SC3(C)C)C(C)(C)S2)cc1,RF,-,cytopathic effect / MTT,-,0.01 µM
CCOCn1c(Sc2ccccc2)c(CC)c(=O)[nH]c1=O,A012D,-,cytopathic effect / MTT,-,0.015 µM
CCOC(=O)c1cn(C)cc1S(=O)(=O)c1ccccc1,IIIB,-,cytopathic effect / MTT,-,>200 µM
Cc1ccnc(SC(F)(F)c2nc3ccccc3o2)n1,IIIB,-,GFP / fluorescence,-,0.11 µM
Nc1ncnc2c1ncn2[C@@H]1O[C@H](CO)[C@H]1CO,IIIB,-,cytopathic effect,-,2.78 µM
O=c1[nH]cnc2c1ncn2[C@@H]1C[C@H](CO)CS1,-,-,cytopathic effect,-,>100 µM
CN(C)C(C)(c1nc(C(=O)NCc2ccc(F)cc2)c(O)c(=O)[nH]1)C(F)(F)F,IIIB,-,p24,50% human serum,<1 µM
C#CC1(CO)O[C@@H](n2cnc3c(N)ncnc32)[C@H](O)[C@@H]1O,LAI,-,cytopathic effect / MTT,-,>400 µM
CCc1c(Sc2ccccc2)n(COCCO)c(=O)[nH]c1=O,-,-,cytopathic effect,-,0.12 µM
COC(=O)c1ccc(Cl)cc1S(=O)(=O)/N=c1\sc(C(C)(C)C)c(C)n1C,IIIB,-,cytopathic effect / MTT,-,>25 µM
Cc1cc(C)cc(S(=O)(=O)c2c(C(=O)NC(C)C(N)=O)[nH]c3ccc(Cl)cc23)c1,-,L100I,MTT,-,0.009 µM
CCc1cn([C@H]2C[C@H](N=[N+]=[N-])[C@@H](CO)O2)c(=O)[nH]c1=O,IIIB,-,ELISA / antigen,-,64 µM
C#C[C@]1(CO)O[C@@H](n2cnc3c(N)ncnc32)C[C@@H]1O,LAI,-,cytopathic effect / MTT,-,0.00098 µM
O=C1Nc2ccc(Cl)cc2S(=O)(=O)c2cn(Cc3ccc(-c4ccccc4)cc3)cc21,IIIB,-,cytopathic effect / MTT,-,>4.6 µM
O=c1[nH]cnc2c1ncn2C1C[C@H](CO)CS1,-,-,cytopathic effect,-,>100 µM
O=C(NC1CCNCC1)c1cc(O)c(O)c(O)c1,IIIB,-,MTT,-,>42.1 µM
CC(c1nc(C(=O)NCc2ccc(F)cc2)c(O)c(=O)[nH]1)N(C)C,IIIB,-,p24,50% human serum,<0.5 µM
Cc1c(Sc2ccccc2)n(COCCO)c(=O)[nH]c1=O,-,-,cytopathic effect,-,6.5 µM
CC(=O)c1ccccc1NC(C(N)=O)c1c(Cl)cccc1Cl,IIIB,-,p24,-,<0.15 µM
CC(=O)Nc1ccc(Cl)cc1S(=O)(=O)/N=c1\sc(C(C)(C)C)c(C)n1C,IIIB,-,cytopathic effect / MTT,-,2.7 µM
CCN(C)C(C)(C)c1nc(C(=O)NCc2ccc(F)cc2)c(O)c(=O)[nH]1,IIIB,-,p24,10% FBS,<0.12 µM
CC(C)=CCN1Cc2cccc3[nH]c(=S)n(c23)C[C@@H]1C,IIIB,-,trypan blue,-,0.021 µM
Cc1cn([C@H]2C[C@H](N=[N+]=[N-])[C@@H](COP(=O)(O)O)O2)c(=O)[nH]c1=O,-,-,MTT,-,0.001 µM
Nc1ncnc2c1ncn2CCOCP(=O)(O)O,899A,-,absorbance,-,2 µM
CCOC(=O)c1cn(C)cc1S(=O)(=O)c1cc(Cl)ccc1N,Clinical isolate,RT-Y181C,cytopathic effect / MTT,-,≥30 µM
Cc1ccnc2c1NC(=O)c1cccnc1N2C1CC1,-,RT-K70R Y181C,-,-,<3 µM
O=C(NC1CCN(S(=O)(=O)c2ccccc2)CC1)c1cc(O)c(O)c(O)c1,IIIB,-,MTT,-,>127.8 µM
COC(=O)c1cn(C)c2cc(Oc3ccnc(Nc4ccc(C#N)cc4)n3)c(Br)cc2c1=O,IIIB,K103N Y181C NNRTI-resistant,MTT,-,>159 µM
CCCCCCOCc1cn([C@@H]2C[C@H](N=[N+]=[N-])[C@@H](CO)O2)c(=O)[nH]c1=O,IIIB,-,ELISA / antigen,-,33 µM
CCCN(C)C(=O)Oc1nsnc1-c1c(Cl)ccc(N)c1Cl,IIIB,-,MTT,-,0.042 µM
Nc1ncnc2c1ncn2C/C=N/OCP(=O)(O)O,899A,-,absorbance,-,57 µM
Cc1cn(C2CC(N=[N+]=[N-])C(COP(=O)(OC[C@H]3O[C@@H](n4cc(C)c(=O)[nH]c4=O)C[C@@H]3N=[N+]=[N-])C(=O)OCCSC(=O)C(C)(C)C)O2)c(=O)[nH]c1=O,IIIB,-,cytopathic effect / MTT,-,0.0025 µM
Nc1ncnc2c1ncn2/C=C1/C[C@H]1CO,IIIB,-,cytopathic effect / MTT,-,13 µM
CC(C)c1s/c(=N\S(=O)(=O)c2cc(Cl)ccc2O)n(C)c1Cl,IIIB,-,cytopathic effect / MTT,-,0.027 µM
C#C[C@]1(CO)O[C@@H](n2cnc3cncnc32)C[C@@H]1O,LAI,-,cytopathic effect / MTT,-,135 µM
CN=C1CN=C(c2ccc[nH]2)c2cc(Cl)ccc2N1,IIIB,-,cytopathic effect / MTT,-,>2.7 µM
COc1ccc(S(=O)(=O)N(CC(C)C)CC(O)C(NC(=O)c2cccc(N)c2C)Sc2ccccc2)cc1,BRU,-,cytopathic effect,-,0.1–1 µM
[N-]=[N+]=N[C@H]1C[C@H](n2cc(CO)c(=O)[nH]c2=O)O[C@@H]1CO,IIIB,-,ELISA / antigen,-,>500 µM
Nc1nc2c(ncn2[C@H]2C[C@H](CO)CS2)c(=O)[nH]1,-,-,cytopathic effect,-,>100 µM
Cc1ccnc2c1NC(=O)c1cccnc1N2C1CC1,-,RT-Y188L,cytopathic effect / MTT,-,>10 µM
Cc1c(C(C)(C)C)s/c(=N\S(=O)(=O)c2cccc(Cl)c2O)n1C,IIIB,-,cytopathic effect / MTT,-,11 µM
C#CC1(CO)O[C@@H](n2cc(C)c(=O)[nH]c2=O)[C@H](O)[C@@H]1O,LAI,-,cytopathic effect / MTT,-,>400 µM
Cc1cn([C@H]2C=C[C@@H](CO)O2)c(=O)[nH]c1=O,IIIB,-,cytopathic effect / trypan blue,-,0.01 µM
CN(C)S(=O)(=O)N1CCC(NC(=O)c2cc(O)c(O)c(O)c2)CC1,IIIB,-,MTT,-,>34.8 µM
C#CC1(CO)O[C@@H](n2c(C)nc3c(N)ncnc32)[C@H](O)[C@@H]1O,LAI,-,cytopathic effect / MTT,-,>400 µM
Cc1cn([C@@H]2O[C@H](CO[Si](C)(C)C(C)(C)C)C3(OS(=O)(=O)C=C3N)[C@H]2O[Si](C)(C)C(C)(C)C)c(=O)n(C)c1=O,IIIB,-,cytopathic effect,-,0.06 µM
CN1CCCC1c1nc(C(=O)NCc2ccc(F)cc2)c(O)c(=O)[nH]1,IIIB,-,p24,50% human serum,<0.62 µM
CCc1c(O)cccc1C(=O)N[C@@H](Cc1ccccc1)[C@H](O)C(=O)N1CSC[C@H]1C(=O)NCc1ccccc1C,IIIB,-,-,-,4.15 µM
Cc1cccc(C)c1CNC(=O)[C@H]1N(C(=O)[C@@H](O)C[C@@H](Cc2ccccc2)C(=O)N[C@H]2c3ccccc3C[C@H]2O)CSC1(C)C,-,-,p24,-,<0.031 µM
Nc1ccn([C@@H]2C[C@H](CO)CS2)c(=O)n1,-,-,cytopathic effect,-,>100 µM
CCc1c(O)cccc1C(=O)N[C@@H](Cc1ccccc1)[C@H](O)C(=O)N1CSC(C)(C)[C@H]1C(=O)NCc1ccccc1C,IIIB,-,-,-,0.18 µM
COc1ccc(CN[C@@H](C(=O)N[C@H](C(=O)NCc2nc3ccccc3[nH]2)C(C)C)[C@H](O)[C@H](Cc2ccccc2)NC(=O)[C@@H](NC(=O)[C@@](C)(O)c2ccccc2)C(C)(C)C)cc1,IIIB,-,MTT / p24,-,0.0079 µM
Cc1cn([C@H]2C[C@H](N=[N+]=[N-])[C@@H](CO)O2)c(=O)[nH]c1=O,-,F227L + V106A mutant,MTT,-,0.005 µM
CCCCCCCCOC(=O)P(=O)(OC[C@H]1O[C@@H](n2cc(C)c(=O)[nH]c2=O)C[C@@H]1N=[N+]=[N-])OC[C@H]1O[C@@H](n2cc(C)c(=O)[nH]c2=O)C[C@@H]1N=[N+]=[N-],IIIB,-,cytopathic effect / MTT,-,0.013 µM

A second listing of 9 rows from above:

| smiles | strain | changes | method | conditions | result |
|---|---|---|---|---|---|
| CCCCCCCCOC(=O)P(=O)(OC[C@H]1O[C@@H](n2cc(C)c(=O)[nH]c2=O)C[C@@H]1N=[N+]=[N-])OC[C@H]1O[C@@H](n2cc(C)c(=O)[nH]c2=O)C[C@@H]1N=[N+]=[N-] | IIIB | - | cytopathic effect / MTT | - | 0.013 µM |
| COC(=O)c1ccc(Cl)cc1S(=O)(=O)/N=c1\sc(C(C)(C)C)c(C)n1C | IIIB | - | cytopathic effect / MTT | - | >25 µM |
| Cc1ccnc2c1NC(=O)c1cccnc1N2C1CC1 | - | RT-K70R Y181C | - | - | <3 µM |
| Cc1c(Sc2ccccc2)n(COCCO)c(=S)[nH]c1=O | - | - | cytopathic effect | - | 1.6 µM |
| O=C(NC1CCN(S(=O)(=O)c2ccccc2)CC1)c1cc(O)c(O)c(O)c1 | IIIB | - | MTT | - | >127.8 µM |
| C#C[C@]1(CO)O[C@@H](n2cnc3c(N)ncnc32)C[C@@H]1O | LAI | - | cytopathic effect / MTT | - | 0.00098 µM |
| CC(=O)Nc1nc(C)c(S(=O)(=O)N2CCC(NC(=O)c3cc(O)c(O)c(O)c3)CC2)s1 | IIIB | - | MTT | - | >80 µM |
| CCN(C)C(C)(C)c1nc(C(=O)NCc2ccc(F)cc2)c(O)c(=O)[nH]1 | IIIB | - | p24 | 10% FBS | <0.12 µM |
| CCOCn1c(Sc2ccccc2)c(CC)c(=O)[nH]c1=O | A012D | - | cytopathic effect / MTT | - | 0.015 µM |